Molecules are shown by their SMILES. This is a selection; strong and weak results do not stand in their true shares. Active and inactive are the calls of the source. Rule as the data show it: active = max response mostly above about 13% (no sharp cut-off); inactive = mostly below about 14%.

This experiment in a line: Cycloheximide Counterscreen for Small Molecule Inhibitors of Shiga Toxin. Also: read at 38.3 µM for the half of the compounds with a filed dose; 0% is about no effect. To be noted: cell reporter, cycloheximide protein synthesis inhibition counterscreen; hits give high values.
Turning to `COc1ccccc1OP(C)(=O)Nc1ccc(C)c(C)c1` (configuration not stated), the max response is inactive: -2.06%.

With `COc1ccc(OP(C)(=O)Nc2ccccc2Br)cc1` (configuration not stated), the max response is inactive: -2.35%.

`Cc1cc(C)cc(OP(C)(=O)Nc2cccc(C(F)(F)F)c2)c1` (configuration not stated): the max response was inactive: -7.29%.

With `CCN(N=Nc1nonc1N)c1nonc1N`, the max response was inactive: -5.98%.

On to `CP(=O)(Nc1ccc(Cl)cc1Cl)Oc1ccccc1` (configuration not stated), for which the max response is inactive: 5.24%.

Take `CP(=O)(OCCOc1ccccc1)OCCOc1ccccc1`: the max response is inactive: 0.38%.

As for `O=[N+]([O-])c1cc([N+](=O)[O-])c(CCN2CCOCC2)c([N+](=O)[O-])c1`, the max response is inactive: -7.87%.

For the molecule `COc1ccc(OP(C)(=O)Nc2ccccn2)cc1` (configuration not stated), the max response is inactive: -3.28%.

For the molecule `CN(C)CCOC(=O)C(O)(c1ccccc1)C1CCCC1` (configuration not stated), the max response was inactive: 0.652%.

On to `COc1ccccc1OP(C)(=O)Nc1ccc(Br)cc1` (configuration not stated), for which the max response was inactive: 8.27%.

Consider `COc1ccccc1OP(C)(=O)Nc1ccc(C)cc1C` (configuration not stated), for which the max response was inactive: -2.26%.

For the molecule `CP(=O)(Nc1ccccn1)Oc1ccccc1` (configuration not stated), the max response was inactive: -1.11%.

With `CCc1ccc(OP(C)(=O)O)cc1`, the max response was inactive: -1.64%.

For the molecule `Nc1cc(N)c2nonc2c1[N+](=O)[O-]`, the max response was inactive: -1.3%.

`Cc1c(NP(C)(=O)Oc2ccc(C(C)C)cc2)c(=O)n(-c2ccccc2)n1C` (configuration not stated): the max response is inactive: -1.57%.

Consider `O=[N+]([O-])c1cc([N+](=O)[O-])c(Nc2ccccn2)c([N+](=O)[O-])c1`, for which the max response was inactive: 4.83%.

On to `O=C(OCCCN1CCCC1)C(O)(c1ccccc1)C1CCCCC1` (configuration not stated), for which the max response is inactive: -2.16%.

Regarding `COc1ccccc1OP(C)(=O)Nc1c(C)n(C)n(-c2ccccc2)c1=O` (configuration not stated), the max response is inactive: -1.11%.

Take `CCc1ccc(OP(C)(=O)Nc2cccnc2)cc1` (configuration not stated): the max response was inactive: -5.07%.

For `O=[N+]([O-])c1cc([N+](=O)[O-])c(CCNc2ccccc2)c([N+](=O)[O-])c1`, the max response was inactive: 6.64%.

As to `CCc1nc2c(n1)c1c(non1O)c1c2no[n+]1[O-]`, the max response is inactive: -1.43%.

As for `CP(=O)(Oc1ccccc1)N1CCOC1=O` (configuration not stated), the max response is inactive: -0.177%.

Turning to `COc1ccc(OP(C)(=O)Nc2ccc(Br)cc2)cc1` (configuration not stated), the max response was inactive: -3.45%.

Consider `CCN(CC)CC(O)COC(=O)C(O)(c1ccccc1)C1CCCCC1` (configuration not stated), for which the max response is inactive: 1.46%.

Regarding `CC(C)=N/N=C(\N)N[N+](=O)[O-]`, the max response is inactive: 3.28%.

In the case of `CN(C)C(=O)c1c([N+](=O)[O-])cc([N+](=O)[O-])cc1[N+](=O)[O-]`, the max response was inactive: 6.81%.

Consider `C[N+]1=C2C=CC=CC=C2SC12C([N+](=O)[O-])=CC([N+](=O)[O-])=C[C-]2[N+](=O)[O-]` (configuration not stated), for which the max response is active: 67.5%.

With `COc1ccccc1OP(C)(=O)Nc1ccccc1Br` (configuration not stated), the max response was inactive: -5.54%.

In the case of `CC(C)(C)c1ccc(OP(C)(=O)O)cc1`, the max response was inactive: 0.382%.

Consider `CP(=O)(Nc1ccc(Cl)cc1)Oc1ccc(F)cc1` (configuration not stated), for which the max response was inactive: -2.82%.

Regarding `CCOC(=O)c1ccc(NP(C)(=O)Oc2ccc(Cl)cc2)cc1` (configuration not stated), the max response is inactive: 1.45%.

As to `CP(=O)(OC12CC3CC(CC(C3)C1)C2)OC12CC3CC(CC(C3)C1)C2`, the max response is inactive: -2.65%.

Take `O=[N+]([O-])c1ncn(CCn2ncnc2[N+](=O)[O-])n1`: the max response is inactive: -1.89%.

In the case of `CN(C)CCOC(=O)C(O)(c1ccccc1)C1CCCCC1` (configuration not stated), the max response was inactive: 1.27%.

For `COc1ccc(NP(C)(=O)Oc2ccccc2OC)cc1` (configuration not stated), the max response was inactive: -3.91%.

With `COc1ccc(OP(C)(=O)Nc2cccc(Br)c2)cc1` (configuration not stated), the max response was inactive: -5.46%.

Turning to `C(Cc1nn[nH]n1)Cc1nn[nH]n1`, the max response was inactive: 2.44%.

As for `O=[N+]([O-])c1ccc(OP2(=O)COCCO2)cc1` (configuration not stated), the max response was inactive: -3.29%.

Consider `O=[N+]([O-])c1ncn(CCn2cnc([N+](=O)[O-])n2)n1`, for which the max response was inactive: 1.27%.

With `Cc1cc(-c2cccc3ccccc23)c(C)cn1.O=[N+]([O-])c1cc([N+](=O)[O-])c(O)c([N+](=O)[O-])c1`, the max response is inactive: -1.05%.

As for `CCOP(C)(=S)SCC(=O)NC(C)(CC)C(=O)O` (configuration not stated), the max response is inactive: 0.253%.

Turning to `c1nnnn1CCn1cnnn1`, the max response was inactive: -4.97%.

In the case of `CP(=O)(Nc1ccc(SC(F)(F)F)cc1)Oc1ccc(F)cc1` (configuration not stated), the max response is inactive: -2.38%.

Regarding `Cc1ccccc1NP(C)(=O)Nc1ccccc1C`, the max response was inactive: -0.391%.

Turning to `CP(=O)(Nc1ccc2c(c1)OCCO2)Oc1ccccc1` (configuration not stated), the max response was inactive: 20%.

On to `CP(=O)(Nc1ccccc1F)Oc1ccccc1` (configuration not stated), for which the max response is inactive: -2.47%.

For the molecule `CC(C)c1ccc(OP(C)(=O)Nc2ccc(SC(F)(F)F)cc2)cc1` (configuration not stated), the max response is inactive: -2.02%.

Turning to `O=C(OCCN1CCN(CCOCc2ccccc2)CC1)C(O)(c1ccccc1)c1ccccc1`, the max response was inactive: 0.636%.

As for `CCOC(=O)c1ccc(NP(C)(=O)Oc2ccc(F)cc2)cc1` (configuration not stated), the max response was inactive: -2.75%.

On to `COc1ccc(OP(C)(=O)Nc2ccc(SC(F)(F)F)cc2)cc1` (configuration not stated), for which the max response was inactive: -0.794%.

Regarding `CCNC(=S)/N=C(\N)N[N+](=O)[O-]`, the max response was inactive: 1.36%.

For `CP(=O)(Nc1ccccc1)Oc1ccc(F)cc1` (configuration not stated), the max response was inactive: -1.84%.

Take `O=c1c2cc([N+](=O)[O-])ccc2[nH]c2c([N+](=O)[O-])cc([N+](=O)[O-])cc12`: the max response was inactive: -1.09%.

Turning to `CCCCCOc1ccc(NP(C)(=O)Oc2ccc(Cl)cc2Cl)cc1` (configuration not stated), the max response was inactive: 4.23%.

Take `CCN(CC)CCCOC(=O)C(O)(c1ccccc1)C1CCCCC1` (configuration not stated): the max response was inactive: -3.84%.

Take `CS(=O)(=O)c1cc([N+](=O)[O-])c2no[n+]([O-])c2c1`: the max response was inactive: 4.61%.

For the molecule `CC1=NCCc2c1[nH]c1ccccc21.O=[N+]([O-])c1cc([N+](=O)[O-])c(O)c([N+](=O)[O-])c1`, the max response was inactive: 10.3%.

On to `O=[N+]([O-])OCC(CO[N+](=O)[O-])(CO[N+](=O)[O-])CO[N+](=O)[O-]`, for which the max response was inactive: 7.34%.

Regarding `CCOC(=O)c1ccc(NP(C)(=O)Oc2cc(C)cc(C)c2)cc1` (configuration not stated), the max response is inactive: -2.76%.

For the molecule `Cc1cc(C)cc(OP(C)(=O)Nc2ccc(C)cc2C)c1` (configuration not stated), the max response was inactive: 5.75%.

As for `COc1ccccc1OP(C)(=O)Nc1cccc(Br)c1` (configuration not stated), the max response is inactive: -0.472%.

For `Cc1ccc(C)c(NP(C)(=O)Oc2ccccc2)c1` (configuration not stated), the max response is inactive: -1.21%.

In the case of `Cc1ccc(NCCc2c([N+](=O)[O-])cc([N+](=O)[O-])cc2[N+](=O)[O-])cc1`, the max response is inactive: 14%.

On to `Cc1cc(C)cc(OP(C)(=O)Nc2ccccn2)c1` (configuration not stated), for which the max response is inactive: -4.18%.

Turning to `CP(=O)(Nc1cccc(Br)c1)Oc1ccccc1` (configuration not stated), the max response is inactive: -6.37%.

On to `CC(C)N(CCCl)C(C)C`, for which the max response was inactive: -2.85%.

With `O=[N+]([O-])c1cc([N+](=O)[O-])c(-n2nnc3ccccc32)c([N+](=O)[O-])c1`, the max response was inactive: -2.27%.

As to `Cc1nc2ccc3ccccc3c2s1.O=[N+]([O-])c1cc([N+](=O)[O-])c(O)c([N+](=O)[O-])c1`, the max response was inactive: 14.9%.

Consider `O=[N+]([O-])c1cc([N+](=O)[O-])c(Nc2nnnn2CCO)c([N+](=O)[O-])c1`, for which the max response was inactive: -3.82%.

As to `CCCOc1ccc(NP(C)(=O)Oc2ccc(Cl)cc2)cc1` (configuration not stated), the max response is inactive: -1.91%.

With `CP(=O)(Nc1ccc(SC(F)(F)F)cc1)Oc1ccccc1` (configuration not stated), the max response is inactive: -0.981%.

Consider `CN1CCCCC1COC(=O)C1(O)c2ccccc2CCc2ccccc21` (configuration not stated), for which the max response is inactive: -4.68%.

For `COc1ccccc1OP(C)(=O)Nc1c(C)cccc1C` (configuration not stated), the max response is inactive: 3.59%.

Take `CP(=O)(Nc1ccccc1Br)Oc1ccccc1` (configuration not stated): the max response was inactive: -0.39%.

`COc1ccccc1OP(C)(=O)Nc1ccccc1` (configuration not stated): the max response is inactive: 4.39%.

Turning to `CP(=S)(Nn1cnnc1)Oc1ccccc1` (configuration not stated), the max response was inactive: -1.98%.

On to `Cc1cc(C)cc(OP(C)(=O)Nc2ccc(SC(F)(F)F)cc2)c1` (configuration not stated), for which the max response was inactive: -2.59%.

Consider `CP(=O)(NC(=O)Nc1ccccc1)Oc1ccccc1` (configuration not stated), for which the max response is inactive: -3.85%.

With `CCc1ccc(OP(C)(=O)N2CCN(c3ccc([N+](=O)[O-])cc3)CC2)cc1` (configuration not stated), the max response is inactive: 10.8%.

For `CP(=O)(Oc1ccccc1)OC(c1ccccc1)C(F)(F)F` (configuration not stated), the max response is inactive: -1.02%.

Take `CP(=O)(Nc1ccc(SC(F)(F)F)cc1)Oc1ccc(Cl)cc1` (configuration not stated): the max response was inactive: -1.69%.

With `Cc1cccc(C)c1OP(C)(=O)Nc1ccc(SC(F)(F)F)cc1` (configuration not stated), the max response was inactive: -6.15%.

With `CP(=O)(Nc1ccccn1)Oc1ccc(Cl)cc1` (configuration not stated), the max response is inactive: -4.35%.

Take `CCOC(=O)c1ccc(NP(C)(=O)Oc2ccc(OC)cc2)cc1` (configuration not stated): the max response was inactive: -4.06%.

Turning to `CCOP(C)(=S)SCC(=O)NC(C)C(=O)O` (configuration not stated), the max response was inactive: -0.429%.

Take `CCN(CC)CCCOC(=O)C(O)(c1ccccc1)c1ccccc1`: the max response is inactive: 1.82%.

For the molecule `O=[N+]([O-])c1ccc2c(c1)C=Nc1ccccc1O2`, the max response was inactive: -4.36%.

Take `Cc1cccc(C)c1OP(C)(N)=O` (configuration not stated): the max response was inactive: -1.99%.

As to `O=C(O)C(O)(c1ccccc1)c1ccccc1`, the max response is inactive: -5.28%.

For the molecule `CC(C)(C)c1ccc(OP(C)(=O)Nc2ccc(SC(F)(F)F)cc2)cc1` (configuration not stated), the max response is inactive: -0.368%.

With `O=C(O)C1(O)c2ccccc2-c2ccccc21`, the max response was inactive: 6.24%.

Turning to `Cc1cc(C)cc(OP(C)(N)=O)c1` (configuration not stated), the max response was inactive: -6.94%.

Regarding `COc1ccc(OP(C)(=O)Nc2cccc(F)c2)cc1` (configuration not stated), the max response was inactive: -1.59%.

Take `COc1ccccc1OP(C)(=O)Nc1cc(Cl)ccc1C` (configuration not stated): the max response is inactive: 4.11%.

For the molecule `Cc1ccc(NP(C)(=O)Oc2ccccc2)c(C)c1` (configuration not stated), the max response is inactive: 1.46%.

`COc1ccccc1OP(C)(=O)Nc1ccc(C)cc1` (configuration not stated): the max response was inactive: -2.16%.

For the molecule `CCOC(=O)c1ccc(NP(C)(=O)Oc2ccccc2)cc1` (configuration not stated), the max response is inactive: -0.758%.

(Values after PubChem BioAssay AID2314 (National Center for Advancing Translational Sciences (NCATS), 2010).)
